Results of unrelated studies side by side (data: NIAID ChemDB).

Common to all: growth or infection tests; agent: Mycobacterium tuberculosis

An empty or dashed field is not shown. MIC bound: limit read from a one-dose screen. Rows are shuffled and stem from different studies. Percent inhibition refers to the dose given; in toxicity tests it is the harm to the cells.

compound,endpoint,strain or isolate,dose,method,value
CCOC(=O)C1CSC(CCCOCc2ccccc2)C1=O,MIC,H37Rv,,,>100 µg/mL
CS(=O)(=O)O.O=C(OC1C2C=COC(OC3OC(CO)C(O)C(O)C3O)C2C2(CO)OC12)c1ccc(O)cc1,inhibition,H37Rv,12.5 µg/mL,BACTEC,-20%
C[C@@H]1[C@H]2C[C@@H](C[C@H]1NCCNCC(c1ccccc1)c1ccccc1)C2(C)C,MIC,,,,6.25 µM
Cc1cc(=O)oc2c3c(c4c(c12)OC(C)(C)C=C4)OC(C)(C)C=C3,MIC bound,H37Rv,,BACTEC,>12.5 µg/mL
CCCCC(CC)CN1CN(CC(CC)CCCC)CC(C)(NCCN[C@H](CC)CO)C1,MIC,,,,25 µM
O=[N+]([O-])c1cccs1,MIC,H37Rv,,,100 µg/mL
CCCCCCCCCCCNCCNCCc1ccc(OC)cc1,MIC,,,,25 µM
Oc1ccc2c(oc3ccccc32)c1O,MIC,H37Rv,,,>100 µg/mL
CO[C@H]1/C=C/O[C@@]2(C)Oc3c(C)c(O)c4c(c3C2=O)C(=O)c2cnc(nc2C4=O)/C(C)=C\C=C\[C@H](C)[C@H](O)[C@@H](C)[C@@H](O)[C@@H](C)[C@H](OC(C)=O)[C@@H]1C,inhibition,H37Rv,12.5 µg/mL,BACTEC,99%
CCN(CC)CC1CCc2ccc3ccccc3c2C1O.Cl,MIC,H37Rv,,,>100 µg/mL
CCC(C)c1cnc(CC(C)C)c(=O)[nH]1,inhibition,H37Rv,12.5 µg/mL,BACTEC,-3%
COc1ccc(OC)c(CNCCNC2C3CC4CC(C3)CC2C4)c1,MIC,,,,12.5 µM
O=c1c2ccccc2nc(-c2ccccc2)n1-c1nnc(C(F)(F)F)s1,MIC bound,H37Rv,,BACTEC,≤12.5 µg/mL
COc1ccc(CCNCCNCCC(c2ccccc2)c2ccccc2)cc1,MIC,,,,50 µM
Nc1ccc(C(=O)c2ccc(N)cc2)cc1,MIC,H37Rv,,,25 µg/mL
Cc1ccc2nc(N/N=C/c3cccc(C)n3)cc(C)c2c1,MIC,H37Rv,,,>12.5 µg/mL
COc1ccccc1CCNCCNC/C=C(\C)CCC=C(C)C,MIC,,,,50 µM
CC1=NN(C(=O)c2ccncc2)C(=O)C1N=Nc1ccc(C)cc1,inhibition,H37Rv,12.8 µg/mL,BACTEC,18%
CC1(C)[C@H]2CC[C@@H](CNCCNCCCCCO)[C@@H]1C2,MIC,,,,50 µM
CC(=O)c1ccc(I)cc1,MIC,H37Rv,,,>100 µg/mL
COc1ccccc1CCNCCNCCC(c1ccccc1)c1ccccc1,MIC,,,,12.5 µM
CCOP(=O)(OCC)C(C(=O)OC)C(=O)C(=O)Nc1c(C)cc(Br)cc1C,inhibition,H37Rv,6.25 µg/mL,resazurin,3%
Cc1cc(N)ccc1S(=O)(=O)c1ccc(N)cc1,MIC,H37Rv,,,100 µg/mL
N#Cc1c(N)[nH]c(S)c1C#N,MIC bound,H37Rv,,BACTEC,>6.25 µg/mL
Cc1c(Br)c(Br)c(O)c(Br)c1Br,MIC,H37Rv,,,>100 µg/mL
CCN(CC)c1c([N+](=O)[O-])c(=O)nc2ccccn12,MIC bound,H37Rv,,resazurin,>6.25 µg/mL
CC(=O)NNC(C)=O,MIC,H37Rv,,,>100 µg/mL
N#CCCSC(=S)N1CCN(C(=S)SCCC#N)C1=O,MIC,H37Rv,,BACTEC,≥128 µg/mL
CCN(CC)CCNc1cccc2c(C)cc(=O)[nH]c12,MIC,H37Rv,,,>100 µg/mL
CC(C)=CCC/C(C)=C/CNCCNCC12CC3CC(CC(C3)C1)C2,MIC,,,,25 µM
Cc1nc2ccc(Br)cc2c(=O)n1NC(=O)c1cc(-c2ccccc2)nc2ccccc12,MIC bound,H37Rv,,resazurin,>6.25 µg/mL
O=C(O)CCCCCCCCCCCCCCCCCc1ccc2ccccc2c1Cl,MIC,H37Rv,,,>100 µg/mL
CC(CNCCNCCCCc1ccccc1)c1ccccc1,MIC,,,,25 µM
CN(C)c1ccc(N=Nc2ccc([As](=O)(O)O)cc2)cc1,MIC,H37Rv,,,>100 µg/mL
CCCCCCCCCCCNCCNC[C@@H]1CC[C@H]2C[C@@H]1C2(C)C,MIC,,,,25 µM
CC(C)c1ccc2c(c1)CC[C@H]1[C@](C)(CNCCNC3CCC3)CCC[C@]21C,MIC,,,,50 µM
CN1CCN(C(=S)S)CC1,MIC bound,H37Rv,,resazurin,<6.25 µg/mL
O=C1/C(=C2\Sc3ccc4ccccc4c3C2=O)Sc2ccc3ccccc3c21,MIC,H37Rv,,,>100 µg/mL
COc1ccc(CNCCNCCC2=CCCCC2)cc1OC,MIC,,,,50 µM

A second listing of 2 rows from above:

{"compound": "COc1ccc(CCNCCNCCC(c2ccccc2)c2ccccc2)cc1", "endpoint": "MIC", "value": "50 µM"}
{"compound": "COc1ccccc1CCNCCNCCC(c1ccccc1)c1ccccc1", "endpoint": "MIC", "value": "12.5 µM"}